According to patent US7615542B2, “Dioxolane thymine and combinations for use against 3TC/AZT resistant strains of HIV” (priority 2002, dated 2009):
Where “and” joins values, the source holds several entries; their conditions need not be identical. Equal entries are not always repeated.

Test system: K65RPITT
Assay: Cross-resistance assay in human PBM cells, RT activity readout: K65R virus
Format: cell-based, HIV
Conditions: slope of concentration-response curve

## Cc1cn([C@H]2CO[C@@H](CO)O2)c(=O)[nH]c1=O [DOT, (−)-(1′R,4′R)-Dioxolane-thymine]
  SLOPE: 1.1 ± 0.12 and 0.82 ± 0.16
